{"source": "PubChem BioAssay AID1259414, Drosophila RNAi Screening Center | 2018", "test": "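Genome-wide screen for host control of endosymbiont load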 (primary screen)", "cells": "Drosophila JW18 cells infected with Wolbachia", "reagent": "long dsRNA against Drosophila genes, 0.25 µg dsRNA per well of a 384-well plate", "timing": "5 days", "conditions": "cells persistently infected with Wolbachia before knock-down; no added drug", "measurement": "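Automated imaging of bacterial rRNA staining divided by host cell count, reported as plate-normalised robust z-score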", "reading the numbers": "Wolbachia per cell robust z: higher = more Wolbachia per host cell than the plate typical", "call rule": "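Hit when robust z is 1.5 or more, or -1.5 or less, in at least two of three replicates; excludes dsRNAs with several or no targets, genes not expressed in JW18 and well A1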", "note": "The screen tested about 24,000 reagents; below is a random part of those with a known target gene and a result. In the full data, about 1,210 (5%) were called active. 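Inactive calls also include excluded dsRNAs with several or no targets, genes unexpressed in JW18, and well A1, regardless of score.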 Reagents against one gene are numbered here. A plus sign joins genes that one reagent is predicted to hit."}
{"gene":"Rfk (GeneID 40936)","reagent":1,"Wolbachia per cell robust z, rep 1":0.614,"Wolbachia per cell robust z, rep 2":0.267,"Wolbachia per cell robust z, rep 3":0.179,"call":"inactive"}
{"gene":"Rfk (GeneID 40936)","reagent":2,"Wolbachia per cell robust z, rep 1":-0.391,"Wolbachia per cell robust z, rep 2":-1.27,"Wolbachia per cell robust z, rep 3":1.78,"call":"inactive"}
{"gene":"CG3457 (GeneID 31196)","reagent":1,"Wolbachia per cell robust z, rep 1":-0.739,"Wolbachia per cell robust z, rep 2":-0.0791,"Wolbachia per cell robust z, rep 3":-2.63,"call":"inactive"}
{"gene":"CG3457 (GeneID 31196)","reagent":2,"Wolbachia per cell robust z, rep 1":-0.72,"Wolbachia per cell robust z, rep 2":-0.0803,"Wolbachia per cell robust z, rep 3":0.456,"call":"inactive"}
{"gene":"tara (GeneID 53562)","reagent":1,"Wolbachia per cell robust z, rep 1":0.000471,"Wolbachia per cell robust z, rep 2":-0.78,"Wolbachia per cell robust z, rep 3":-0.721,"call":"inactive"}
{"gene":"tara (GeneID 53562)","reagent":2,"Wolbachia per cell robust z, rep 1":-0.626,"Wolbachia per cell robust z, rep 2":-0.491,"Wolbachia per cell robust z, rep 3":-0.261,"call":"inactive"}
{"gene":"tara (GeneID 53562)","reagent":3,"Wolbachia per cell robust z, rep 1":0.425,"Wolbachia per cell robust z, rep 2":-0.298,"Wolbachia per cell robust z, rep 3":1.32,"call":"inactive"}
{"gene":"Dgk (GeneID 35738)","reagent":1,"Wolbachia per cell robust z, rep 1":-0.0412,"Wolbachia per cell robust z, rep 2":-0.788,"Wolbachia per cell robust z, rep 3":-0.497,"call":"inactive"}
{"gene":"Dgk (GeneID 35738)","reagent":2,"Wolbachia per cell robust z, rep 1":0.352,"Wolbachia per cell robust z, rep 2":0.286,"Wolbachia per cell robust z, rep 3":0.348,"call":"inactive"}
{"gene":"Dgk (GeneID 35738)","reagent":3,"Wolbachia per cell robust z, rep 1":0.0639,"Wolbachia per cell robust z, rep 2":-6.15,"Wolbachia per cell robust z, rep 3":-0.585,"call":"inactive"}
{"gene":"Dgk (GeneID 35738)","reagent":4,"Wolbachia per cell robust z, rep 1":0.944,"Wolbachia per cell robust z, rep 2":0,"Wolbachia per cell robust z, rep 3":1.15,"call":"inactive"}
{"gene":"Dgk (GeneID 35738)","reagent":5,"Wolbachia per cell robust z, rep 1":0.746,"Wolbachia per cell robust z, rep 2":-0.262,"Wolbachia per cell robust z, rep 3":-0.365,"call":"inactive"}
{"gene":"Sdic4 + sw + Sdic1 + 2 more","reagent":1,"Wolbachia per cell robust z, rep 1":0.207,"Wolbachia per cell robust z, rep 2":0.499,"Wolbachia per cell robust z, rep 3":0.642,"call":"inactive"}
{"gene":"Sdic4 + sw + Sdic1 + 2 more","reagent":2,"Wolbachia per cell robust z, rep 1":-0.963,"Wolbachia per cell robust z, rep 2":0.575,"Wolbachia per cell robust z, rep 3":0.504,"call":"inactive"}
{"gene":"gish (GeneID 49701)","reagent":1,"Wolbachia per cell robust z, rep 1":-3.14,"Wolbachia per cell robust z, rep 2":-0.864,"Wolbachia per cell robust z, rep 3":2.11,"call":"inactive"}
{"gene":"gish (GeneID 49701)","reagent":2,"Wolbachia per cell robust z, rep 1":-0.662,"Wolbachia per cell robust z, rep 2":0.282,"Wolbachia per cell robust z, rep 3":0.124,"call":"inactive"}
{"gene":"l(3)72Dn (GeneID 39774)","reagent":1,"Wolbachia per cell robust z, rep 1":0.459,"Wolbachia per cell robust z, rep 2":-0.39,"Wolbachia per cell robust z, rep 3":-0.982,"call":"inactive"}
{"gene":"Lst8 (GeneID 31903)","reagent":1,"Wolbachia per cell robust z, rep 1":1.04,"Wolbachia per cell robust z, rep 2":-0.704,"Wolbachia per cell robust z, rep 3":0.936,"call":"inactive"}
{"gene":"Pnn (GeneID 41185)","reagent":1,"Wolbachia per cell robust z, rep 1":-0.654,"Wolbachia per cell robust z, rep 2":0.306,"Wolbachia per cell robust z, rep 3":-0.329,"call":"inactive"}
{"gene":"CG2104 (GeneID 40702)","reagent":1,"Wolbachia per cell robust z, rep 1":0.79,"Wolbachia per cell robust z, rep 2":-0.0193,"Wolbachia per cell robust z, rep 3":-1.16,"call":"inactive"}
{"gene":"CG2104 (GeneID 40702)","reagent":2,"Wolbachia per cell robust z, rep 1":1.3,"Wolbachia per cell robust z, rep 2":0.863,"Wolbachia per cell robust z, rep 3":0.632,"call":"inactive"}
{"gene":"euc (GeneID 42271)","reagent":1,"Wolbachia per cell robust z, rep 1":-3.02,"Wolbachia per cell robust z, rep 2":0.332,"Wolbachia per cell robust z, rep 3":-1.46,"call":"inactive"}
{"gene":"CG33116 (GeneID 326259)","reagent":1,"Wolbachia per cell robust z, rep 1":-0.418,"Wolbachia per cell robust z, rep 2":0.647,"Wolbachia per cell robust z, rep 3":0.811,"call":"inactive"}
{"gene":"CG33116 (GeneID 326259)","reagent":2,"Wolbachia per cell robust z, rep 1":0.81,"Wolbachia per cell robust z, rep 2":-0.632,"Wolbachia per cell robust z, rep 3":-0.644,"call":"inactive"}

A few values from the list:
Result of tara (GeneID 53562) #1 in “Wolbachia per cell robust z, rep 2”: -0.78
Sdic4 + sw + Sdic1 + 2 more #2, Wolbachia per cell robust z, rep 3: 0.504
Sdic4 + sw + Sdic1 + 2 more #1, Wolbachia per cell robust z, rep 2 → 0.499
l(3)72Dn (GeneID 39774), call: inactive
